Anti-infective test results gathered from many reports (values: NIAID ChemDB through PubChem).

All rows: target-level tests; species: HIV-1; target: Reverse transcriptase; measure: inhibition

Lines come from different laboratories, so protocols vary.

compound | mutations | read by | tested at | strain | value
CN1C(=O)c2cc(Cl)nnc2N(C2CC2)c2ncccc21 |  | ELISA | 33 µM |  | 20%
O=C(NCCc1ccccc1)Nc1nc(-c2ccc(Cl)cc2)cs1 |  | nucleotide incorporation | 10 µg/mL |  | 1%
O=C(CC(=O)Nc1ccc2ccccc2n1)Nc1cc(Br)ccn1 |  | RT activity / absorbance | 100 µM |  | 82.64%
C/C1=C\C=C\C2(C)C=C(CO)C(C)CC23OC([O-])C(C3=O)C(O)/C=C/C2(C)C=C(C=O)C(C)CC23OC([O-])C(C3=O)C(O)/C(C)=C/C=C/C2C=C(CO)C(C)CC23OC([O-])C(C3=O)C(O)/C=C/C2(C)C=C(C=O)C(C)CC23OC([O-])C(C3=O)C1O |  | RT activity | 20 µg/mL | IIIB | 87.9%
O=C(NCCc1ccccc1)Nc1nc(C(F)(F)F)cs1 |  | nucleotide incorporation | 1 µg/mL |  | 73–75%
C/C(=C\CC[C@@H](C)[C@H]1CC[C@@]2(C)C1=CC[C@H]1[C@@]3(C)CC[C@H](O)C(C)(C)[C@@H]3CC[C@@]12C)C(=O)O |  | nucleotide incorporation / radiometric | 200 µg/mL |  | 38.1%
CCN1c2ncc(CCc3ccc(N(C)S(C)(=O)=O)cc3)cc2C(=O)N(C)c2ccc(Cl)nc21 | RT-Y181C | nucleotide incorporation / radiometric | 1 µM |  | 56%
CC(C)(C)[Si](C)(C)OCCCC[C@H]1CCCCCC[C@@H](CCCCO[Si](C)(C)C(C)(C)C)[NH+]=C(N)N1.F[B-](F)(F)F |  | RT activity / radiometric | 10 µM |  | 0%
CCOc1ccccc1CCNC(=S)Nc1nccs1 |  | nucleotide incorporation | 0.1 µg/mL |  | 12%
CN1C(=O)c2cc(Cl)nnc2N(C2CC2)c2ccccc21 |  | ELISA | 330 µM |  | 72%
CCCCN1C(=O)c2ccnnc2N(C2CC2)c2ccccc21 |  |  | 33 µM |  | 0%
CCN1c2ncc(C3(c4ccccc4)CO3)cc2C(=O)N(C)c2ccc(Cl)nc21 | RT-Y181C | nucleotide incorporation / radiometric | 1 µM |  | 76%
O=C(NCCc1ccccc1)Nc1ncccn1 |  | nucleotide incorporation | 10 µg/mL |  | 6%
COc1ccc2[nH]c(=O)c(CNC3CC3)cc2c1 |  | RT activity / absorbance | 20 µM |  | -30%
CCN1c2ccc(C)cc2N(C)C(=O)c2ccnnc21 |  |  | 33 µM |  | 43%
CCN1c2ccccc2N(C)C(=O)c2cnn(-c3ccccc3)c21 |  | nucleotide incorporation / radiometric | 30 µM | IIIB | 45%
CCCN1C(=O)c2cc(Cl)nnc2N(CCC)c2ccc(C)cc21 |  |  | 33 µM |  | 6%
COc1ccc2[nH]c(=O)c(CNC3CCCC3)cc2c1 |  | RT activity / absorbance | 20 µM |  | -14.1%
Fc1cccc(Cl)c1CCNC(=S)Nc1nccs1 |  | nucleotide incorporation | 0.1 µg/mL |  | 43%
CCc1cc(CCc2nc3ccccc3o2)c(=O)[nH]c1C |  | radiometric | 25 µM |  | 30%
C[C@@H]1CCCCCC[C@H](CCCCO)[NH+]=C(N)N1 |  | RT activity / radiometric | 40 µM |  | 14.6%
O=C(NCCc1ccccc1)Nc1ccc(Cl)cc1 |  | nucleotide incorporation | 10 µg/mL |  | 35%
CCN1c2nc(Cl)ccc2NC(=O)c2cc(CCc3cccc(NS(C)(=O)=O)c3)cnc21 |  | nucleotide incorporation / radiometric | 1 µM | WT | 59%
CCCCCCCCCC(=O)OCCCC[C@H]1CCCCCC[C@@H](C)NC(N)=[NH+]1 |  | RT activity / radiometric | 10 µM |  | 7.7%
CCOC(=O)CN1C(=O)c2ccnnc2Oc2c(C)cc(C)cc21 |  | ELISA | 33 µM |  | 18%
Cc1cc(C=O)cc(C)c1Oc1cc(Nc2ccc(C#N)cc2)nc2ccccc12 |  | RT activity / ELISA | 1 µM |  | 34%
COC(=O)c1cc(O)c(O)c(O)c1 |  | ELISA | 12.5 µM |  | 17%
CCN1c2ncc(CCc3ccncc3)cc2C(=O)N(C)c2ccc(C#N)nc21 | RT-Y181C | nucleotide incorporation / radiometric | 1 µM |  | 82%
CCN1C(=O)c2ccnnc2N(C2CC2)c2ccccc21 |  |  | 33 µM |  | 2%
O=C(CC(=O)Nc1ncc(F)cc1F)Nc1ccc2ccccc2n1 |  | RT activity / absorbance | 100 µM |  | 88.11%
N=C1SC2C(=NN(c3ccccc3)C2c2ccccc2Br)N1c1nc(-c2ccc(Cl)cc2)cs1 |  | RT activity / absorbance | 100 µg/mL |  | 90.57%
O=C(CC(=O)Nc1cc(=O)cc[nH]1)Nc1ccc2ccccc2n1 |  | RT activity / absorbance | 100 µM |  | 87.33%
O=c1[nH]c2ccccc2cc1CNC1CCCC1 |  | RT activity / absorbance | 20 µM |  | -16.7%
Cc1ccc2c(c1)N(C)C(=O)c1ccnnc1N2C1CC1 |  |  | 33 µM |  | 27%
COc1ccc(-c2csc(N3C(=N)SC4C3=NN(c3ccccc3)C4c3ccccc3)n2)cc1 |  | RT activity / absorbance | 100 µg/mL |  | 84.67%
COc1cccc2cc(CNC3CC3)c(=O)[nH]c12 |  | RT activity / absorbance | 20 µM |  | 3.1%
O=C(NCCc1ccccc1)Nc1nc2ccc(F)cc2s1 |  | nucleotide incorporation | 10 µg/mL |  | 39%
Cc1ccc2c(c1)N(CC1CC1)C(=O)c1ccnnc1O2 |  | ELISA | 330 µM |  | 74%
CCN1C(=O)c2cncnc2N(CC)c2ccccc21 |  | nucleotide incorporation / radiometric | 30 µM | IIIB | 39%
C[C@@H]1CCCCCC[C@H](CCCCOCc2ccccc2)[NH+]=C(N)N1 |  | RT activity / radiometric | 40 µM |  | 29.3%
COc1ccc(-c2csc(N3C(=N)SC4C3=NN(c3ccccc3)C4c3ccc(C)cc3)n2)cc1 |  | RT activity / absorbance | 100 µg/mL |  | 89.8%
CCCN1c2ccccc2N(C)C(=O)c2cc(Cl)nnc21 |  |  | 33 µM |  | 31%
COc1ccc2c(c1)N(C)C(=O)c1ccnnc1O2 |  | ELISA | 33 µM |  | 18%
CCCN1C(=O)c2ccnnc2N(C2CC2)c2ccccc21 |  |  | 33 µM |  | 46%
O=C(CC(=O)Nc1ccc2ccccc2n1)Nc1cc(C(F)(F)F)ccn1 |  | RT activity / absorbance | 100 µM |  | 64.2%
CC(C)(O/N=C(/C(=O)N[C@@H]1C(=O)N2C(C(=O)[O-])=C(C[n+]3ccccc3)CS[C@H]12)c1csc(N)n1)C(=O)O |  | radiometric | 100 µg/mL |  | 35%
CC1=C(O)C(C)(C)C(=O)C2=C1O[C@H](c1ccccc1)CC2=O |  | RT activity / nucleotide incorporation / radiometric | 200 µg/mL |  | 64.1%
C/C(=C\CC[C@@H](C)[C@H]1CC[C@@]2(C)C1=CC[C@H]1[C@@]3(C)CCC(=O)C(C)(C)[C@@H]3CC[C@@]12C)C(=O)O |  | nucleotide incorporation / radiometric | 200 µg/mL |  | 96.3%
CCCN1c2ccc(C)cc2N(C)C(=O)c2cc(Cl)nnc21 |  |  | 330 µM |  | 27%
C=CCN1C(=O)c2ccnnc2Oc2c(C)cc(C)cc21 |  | ELISA | 330 µM |  | 93%
CCCCCCCC(=O)OCCCC[C@H]1CCCCCC[C@@H](C)NC(N)=[NH+]1 |  | RT activity / radiometric | 40 µM |  | 12.1%
CC1(C)C(=O)CC[C@]2(C)C3=C(C[C@H](C4=CCOC4=O)C3)C(=O)C[C@@H]12 |  | RT activity / fluorescence | 200 µg/mL |  | 58.4%

Repeating the final 6 entries:

compound,mutations,read by,tested at,strain,value
CC1=C(O)C(C)(C)C(=O)C2=C1O[C@H](c1ccccc1)CC2=O,,RT activity / nucleotide incorporation / radiometric,200 µg/mL,,64.1%
C/C(=C\CC[C@@H](C)[C@H]1CC[C@@]2(C)C1=CC[C@H]1[C@@]3(C)CCC(=O)C(C)(C)[C@@H]3CC[C@@]12C)C(=O)O,,nucleotide incorporation / radiometric,200 µg/mL,,96.3%
CCCN1c2ccc(C)cc2N(C)C(=O)c2cc(Cl)nnc21,,,330 µM,,27%
C=CCN1C(=O)c2ccnnc2Oc2c(C)cc(C)cc21,,ELISA,330 µM,,93%
CCCCCCCC(=O)OCCCC[C@H]1CCCCCC[C@@H](C)NC(N)=[NH+]1,,RT activity / radiometric,40 µM,,12.1%
CC1(C)C(=O)CC[C@]2(C)C3=C(C[C@H](C4=CCOC4=O)C3)C(=O)C[C@@H]12,,RT activity / fluorescence,200 µg/mL,,58.4%

Blank or dashed fields: not listed here. a–b is a range or a potency band. Inhibition is in % at the dose shown (toxicity tests: loss of growth or viability).